Results of unrelated studies side by side (data: NIAID ChemDB).

All rows: tests on isolated targets; agent: HIV-1; target: Reverse transcriptase; read-out: IC50

ICn is the concentration giving n% inhibition. Neighbouring rows are from separate reports. Blank or dashed fields: not listed here.

smiles | strain or isolate | method | changes | result
COc1ccc(C=O)cc1O |  | RT activity / nucleotide incorporation / fluorescence |  | >100 µM
Fc1cccc(CCNC(=S)Nc2ccc(C(F)(F)F)cn2)c1 |  | nucleotide incorporation / scintillation proximity / radiometric |  | 0.7 µM
C#C[C@]1(COP(=O)(O)OP(=O)(O)OP(=O)(O)O)O[C@@H](n2cc(F)c3c(N)nc(Cl)nc32)C[C@@H]1O |  | RT activity / nucleotide incorporation / luminescence |  | 0.49 µM
CC(=O)Oc1cccc(OC(C)=O)c(=O)c1OC(C)=O |  | radiometric |  | 1000 µM
Oc1cc(O)c2c(c1)O[C@H](c1cc(O)c(O)c(O)c1)[C@@H](O)C2 |  | RT activity / fluorescence |  | >100 µg/mL
CSCSc1cc(Cc2ccccc2)c(C(C)C)c(=O)[nH]1 |  | scintillation proximity |  | 6.6 µM
COc1ccccc(-c2cncnc2)c1=O |  | radiometric |  | >1000 µM
Cc1cn([C@H]2C=C[C@@H](COP(=O)(O)OP(=O)(O)OP(=O)(O)O)O2)c(=O)[nH]c1=O |  | nucleotide incorporation / radiometric | RT-E138A | 0.16 µM
Nc1ccn([C@H]2O[C@@H](COP(=O)(CP(=O)(O)O)OP(=O)(O)O)C(O)[C@H]2O)c(=O)n1 |  | RNase H |  | 585 µM
C#Cc1ccc(Nc2nccc(Oc3c(C)cc(-c4cn(Cc5ccc(S(N)(=O)=O)cc5)nn4)cc3C)n2)cc1 |  | RT activity / ELISA |  | 0.11 µM
COC(=O)C1C(=O)N(O)C(=O)c2ccccc21 |  | RT activity / nucleotide incorporation |  | >50 µM
Cc1nnn2c1CO[C@H]1[C@H](O)[C@H](O)[C@H]3Sc4ccccc4C(=O)N3[C@H]1C2 |  | RT activity / absorbance |  | 10 µM
C#C[C@@]1(CO)C=C[C@H](n2cc(C)c(=O)[nH]c2=O)O1 |  | radiometric |  | 0.2 µM
COc1ccc2c(c1)N(C(=O)OC(C)C)[C@@H](CSC)C(=S)N2 |  | scintillation proximity / radiometric | RT-K103R V106A Y181I G190E | >29 µM
CCOC(=O)Cc1csc(NC(=S)N[C@@H](C)c2cccc3ccccc23)n1 |  | nucleotide incorporation |  | >100 µM
C/C=C/CSc1cc(NC(=S)c2ccsc2C)ccc1Cl |  |  | RT-L100I | 9.5 µM
O=c1c2cc(O)c(O)cc2oc2cc(O)cc(O)c12 |  | RT activity / radiometric |  | 28.25 µM
CCCCC[C@H](O)/C=C/[C@H]1C=CC(=O)[C@@H]1CCCCCCC(=O)O |  | radiometric |  | >50 µg/mL
CC(C)=CCN1C(=O)Nc2ccc(Cl)cc2S1(=O)=O | IIIB | RT activity |  | 8.1 µM
CNC(=O)c1[nH]c2ccc(Cl)cc2c1Sc1ccccc1 |  | strand transfer |  | 0.02 µM
CC[C@H]1CN2CCc3cc(OC)c(OC)cc3[C@@H]2C[C@@H]1C[C@H]1NCCc2cc(OC)c(OC)cc21 | NL4-3 | RT activity / nucleotide incorporation / absorbance |  | 10 µM
Cc1cc(C)c(-n2nnnc2SCC(=O)Nc2ccccc2[N+](=O)[O-])c(C)c1 |  | nucleotide incorporation / radiometric |  | <2 µM
CC(C)=CCN1C(C)C(=O)Nc2ccc(Cl)cc2S1(=O)=O | IIIB | RT activity | RT-L100I | >30 µM
CC1(C)O[C@H]2[C@@H]3OCc4cnnn4C[C@@H]3N3C(=O)c4ccccc4S[C@H]3[C@H]2O1 |  | RT activity / absorbance |  | 3.01 µM
O=C(NC1CCN(C(=O)c2ccc(F)cc2)CC1)c1cc(O)c(O)c(O)c1 | BH10 | ELISA / nucleotide incorporation |  | >320.5 µM
C#Cc1ccc(Nc2nccc(Oc3c(C)cc(-c4cn(CC(=O)Nc5ccc(Br)cc5)nn4)cc3C)n2)cc1 |  | RT activity / ELISA |  | 0.76 µM
C[C@@H](NC(=S)Nc1ccc(Br)cn1)c1cccc2ccccc12 |  | nucleotide incorporation |  | 0.67 µM
Cc1cc(S(N)(=O)=O)ccc1NC(=O)COc1ccc(Br)c(Oc2cc(C#N)cc(C#N)c2)c1F |  | scintillation proximity / radiometric |  | 0.0191 µM
C#Cc1ccc(Nc2nccc(Oc3c(C)cc(-c4cn(Cc5ccccc5[N+](=O)[O-])nn4)cc3C)n2)cc1 |  | RT activity / ELISA |  | 0.15 µM
C[C@H](NC(=S)Nc1ccccn1)c1cccc2ccccc12 |  | nucleotide incorporation |  | >100 µM
C=C(C)OC(=O)N1c2cc(Cl)ccc2NC(=S)C1(C)C | IIIB | RT activity |  | 0.076 µM
O=C(OC1COc2cc(O)cc(O)c2C1)c1ccc(O)c(O)c1 | A17 | strand transfer | RT-K103N Y181C | 100 µM
Cc1cccc(N2C(=O)CSC2c2ccc(N(C)C)cc2)n1 |  | ELISA |  | >10 µg/mL
Cc1cccc(C)c1-n1nnnc1SCC(=O)Nc1ccccc1Cl |  | nucleotide incorporation / radiometric |  | <2 µM
Cc1c(Sc2ccccc2)n(COCCO)c(=O)[nH]c1=O |  | nucleotide incorporation | RT-Y181I | 2 µM
C#Cc1ccc(Nc2nccc(Oc3c(C)cc(-c4cn(-c5ccc(C(=O)O)cc5)nn4)cc3C)n2)cc1 |  | RT activity / ELISA |  | 0.02 µM
O=C1CCSC(c2c(F)cccc2F)N1Cc1ccco1 |  | ELISA |  | <10 µg/mL
COc1ccc(C(=O)O)c(O)c1 |  | RT activity / nucleotide incorporation / fluorescence |  | >100 µM
Cc1cccc(-c2cc(C)c(Nc3ccnc(Nc4ccc(C#N)cc4)n3)c(C)c2)c1 |  | RT activity / PicoGreen / fluorescence |  | 0.018 µM
O=C1c2ccccc2S[C@H]2[C@@H](O)[C@@H](O)[C@@H]3OCc4cnnn4C[C@@H]3N12 |  | RT activity / absorbance |  | 12.47 µM
O=C(O)C(=NNc1ccc(Cl)cc1)C(=O)O |  | radiometric |  | 2.2 µM
Cc1occc1C(=S)Nc1ccc(Cl)c(/C=N/OC(C)(C)C)c1 |  |  | RT-K103N | >100 µM
CC1=CC(C2OC(CN3C(=O)CS[C@H]3C3OC(n4ccc(=O)[nH]c4=O)[C@@H](O)[C@H]3O)[C@@H](O)[C@H]2O)C(=O)NC1=O |  | RT activity |  | 26.3 µM
Cc1ccc(S(=O)(=O)N2CCN(C(=O)c3cc(O)c(O)c(O)c3)CC2)cc1 | BH10 | ELISA / nucleotide incorporation |  | >50 µM
CC1Oc2cc(O)c3c(=O)c4ccc(O)c(O)c4oc3c2C1(C)C |  | RT activity / radiometric |  | 153 µM
COc1ccc(C(=O)N2CCC(NC(=O)c3cc(O)c(O)c(O)c3)CC2)cc1 | BH10 | ELISA / nucleotide incorporation |  | 151.8 µM
Cc1cn([C@@H]2O[C@H](CO[Si](C)(C)C(C)(C)C)C3(OS(=O)(=O)C=C3N)[C@H]2O[Si](C)(C)C(C)(C)C)c(=O)n(C)c1=O | IIIB | RT activity | RT-V106A | >828 µM
O=C(c1cc(O)c(O)c(O)c1)N1CCN(S(=O)(=O)c2ccc(F)cc2)CC1 | BH10 | ELISA / nucleotide incorporation |  | >50 µM
CC(=O)O[C@H]1CC[C@]2(C)C3CC=C4C5[C@](C(=O)O)(CC[C@@H](C)[C@@]5(C)O)CC[C@@]4(C)[C@]3(C)CC[C@H]2C1(C)C | MC99 | RT activity / fluorescence |  | 291 µM
C#Cc1ccc(Nc2nccc(Oc3c(C)cc(-c4cn(CCCC(=O)OC)nn4)cc3C)n2)cc1 |  | RT activity / ELISA |  | 0.21 µM
CC(C)=CCN1C(=O)c2cccn2-c2ccc(Cl)cc2S1(=O)=O | IIIB | RT activity | RT-L100I | >30 µM
COc1cccc(C(=O)N2CCN(C(=O)c3cc(O)c(O)c(O)c3)CC2)c1 | BH10 | ELISA / nucleotide incorporation |  | >50 µM
COc1ccc2c(c1)N(C(=O)OC(C)C)[C@@H](CSC)C(=S)N2 | IIIB | RT activity |  | 0.012 µM
CCc1nnn2c1CO[C@H]1[C@@H]3OC(C)(C)O[C@@H]3[C@@H]3Sc4ccccc4C(=O)N3[C@H]1C2 |  | RT activity / absorbance |  | 0.69 µM
Cc1cc(C)c(Oc2ncc(N)c(Nc3ccc(C#N)cc3)n2)c(C)c1 |  | absorbance |  | 5.2 µM
O=C1c2c(O)cc(O)cc2O[C@H](c2ccc(O)cc2)[C@H]1c1c(O)cc(O)c2c(=O)cc(-c3ccc(O)c(O)c3)oc12 |  | RT activity / radiometric |  | 112 µM
Cc1nc(N2C(=O)CSC2c2c(Cl)cccc2Cl)ccc1Br |  | ELISA |  | >10 µg/mL
O=C(O)C1=CC(=C(c2ccc(O)c(C(=O)O)c2)c2ccc(O)c(C(=O)O)c2)C=CC1=O |  | RT activity / fluorescence |  | >100 µg/mL
COC(=O)c1ccccc1NC(=O)CSc1nnnn1-c1cccc2ccccc12 |  | nucleotide incorporation / radiometric |  | <2 µM
CC1=CC(C2O[C@H](CO)C(N3C(=O)CS[C@@H]3C3OC(n4cc(C)c(=O)[nH]c4=O)[C@@H](O)[C@H]3O)[C@H]2O)C(=O)NC1=O |  | RT activity |  | 6.5 µM
CCCSC(=S)N1CCN(C(=S)Nc2ccccc2)CC1 |  | RT activity / ELISA |  | 21.47 µg/mL
O=c1c(O)c(-c2ccc(O)cc2)oc2cc(O)cc(O)c12 |  | RT activity / fluorescence |  | 41.4 µg/mL
Cc1csc(NC(=S)N[C@@H](C)c2cccc3ccccc23)n1 |  | nucleotide incorporation |  | >100 µM

The last 9 rows once more:

smiles,strain or isolate,method,changes,result
Cc1cc(C)c(Oc2ncc(N)c(Nc3ccc(C#N)cc3)n2)c(C)c1,,absorbance,,5.2 µM
O=C1c2c(O)cc(O)cc2O[C@H](c2ccc(O)cc2)[C@H]1c1c(O)cc(O)c2c(=O)cc(-c3ccc(O)c(O)c3)oc12,,RT activity / radiometric,,112 µM
Cc1nc(N2C(=O)CSC2c2c(Cl)cccc2Cl)ccc1Br,,ELISA,,>10 µg/mL
O=C(O)C1=CC(=C(c2ccc(O)c(C(=O)O)c2)c2ccc(O)c(C(=O)O)c2)C=CC1=O,,RT activity / fluorescence,,>100 µg/mL
COC(=O)c1ccccc1NC(=O)CSc1nnnn1-c1cccc2ccccc12,,nucleotide incorporation / radiometric,,<2 µM
CC1=CC(C2O[C@H](CO)C(N3C(=O)CS[C@@H]3C3OC(n4cc(C)c(=O)[nH]c4=O)[C@@H](O)[C@H]3O)[C@H]2O)C(=O)NC1=O,,RT activity,,6.5 µM
CCCSC(=S)N1CCN(C(=S)Nc2ccccc2)CC1,,RT activity / ELISA,,21.47 µg/mL
O=c1c(O)c(-c2ccc(O)cc2)oc2cc(O)cc(O)c12,,RT activity / fluorescence,,41.4 µg/mL
Cc1csc(NC(=S)N[C@@H](C)c2cccc3ccccc23)n1,,nucleotide incorporation,,>100 µM